Compound potency records, mixed from different reports. Data source: NIAID ChemDB in PubChem.

Shared fields: tests in culture

ECn: concentration that inhibits the pathogen or its effect by n%. Blank or dashed fields: not listed here. Conditions beyond the fields shown may differ between rows. Two numbers with a dash give a range or band. MIC50, MIC90 and the like: level of inhibition, or share of isolates inhibited.

compound	agent	strain	cells	method	endpoint	value
Cc1ccc(CCCOc2c(C)cc(-c3nnn(C)n3)cc2C)o1	Enterovirus	-	HeLa	cytopathic effect	EC50	0.033–0.659 µg/mL
Cc1c(NC2CC2)c(F)cc2c(=O)c(C(=O)O)cn(-c3cc(N)c(F)cc3F)c12	Enterococcus faecium	W1140	-	-	MIC	2 µg/mL
Cc1nc(-c2cc(C)c(OCCCc3ccc(C(F)F)nn3)c(C)c2)no1	Enterovirus	-	HeLa	cytopathic effect	EC50	0.033–0.659 µg/mL
CN(C)c1cc(NC(=O)CNC(C)(C)C)c(O)c2c1C[C@H]1C[C@H]3[C@H](N(C)C)C(=O)C(C(N)=O)=C(O)[C@@]3(O)C(=O)C1=C2O	Enterococcus faecalis	20 strains (vancomycin-resistant)	-	-	MIC90	0.12 µg/mL
O=C(Nc1cccc(C2=NCCN2)c1)Nc1cccc(C(F)(F)F)c1	Enterococcus faecalis	STD44	-	-	MIC	>300 µM
Cc1cc(OCCCc2ccc(Cl)nn2)cc(C)c1-c1noc(C(F)F)n1	Enterovirus	-	HeLa	cytopathic effect	EC50	0.033–0.659 µg/mL
O=C1N(CCCCCOc2ccc(-c3ccc(Cl)cc3)cc2)CCN1c1ccncc1	Enterovirus	Clinical isolate 71 (4643) genotype C	RD	cytopathic effect	EC50	0.038 µM
Cc1c(NCCCO)c(F)cc2c(=O)c(C(=O)O)cn(-c3cc(N)c(F)cc3F)c12	Enterococcus faecium	W1140	-	-	MIC	4 µg/mL
O=C(CC(=O)Nc1ccc(F)cc1)Nc1ccc(F)cc1	Enterococcus faecalis	STD44	-	-	MIC	>300 µM
CC(=O)NC[C@H]1CN(c2ccc(-c3cc(CO)on3)c(F)c2)C(=O)O1	Enterococcus faecalis	UC9217	-	-	MIC	2 µg/mL
Cc1ccc(CCCOc2cc(C)c(-c3noc(C(F)F)n3)c(C)c2)nn1	Enterovirus	-	HeLa	cytopathic effect	EC50	0.033–0.659 µg/mL
CC(CCOc1ccc(-c2ccc(Cl)cc2)cc1)CCN1CCN(c2ccncc2)C1=O	Enterovirus	Clinical isolate 71 (4643)	RD	cytopathic effect	EC50	0.0093 µM
Cc1cc(CCCCCOc2c(Cl)cc(C3=NCCO3)cc2Cl)on1	Enterovirus	Woodruff (CVB3)	VERO	plaque count	EC50	0.044 µg/mL
O=C(NNC(=O)Nc1ccc(Cl)c(Cl)c1)Nc1ccc(Cl)c(Cl)c1	Enterococcus faecalis	STD44	-	-	MIC	9.8 µM
CC1COc2c(N3CCN(C)CC3)c(F)cc3c(=O)c(C(=O)O)cn1c23	Enterococcus faecium	-	-	-	MIC90	4–100 µg/mL
O=C(NNC(=O)Nc1ccccc1C(F)(F)F)Nc1cc(C(F)(F)F)cc(C(F)(F)F)c1	Enterococcus faecalis	STD44	-	-	MIC	>300 µM
Cc1nc(-c2cc(C)c(OCCCc3ccc(C=O)o3)c(C)c2)no1	Enterovirus	-	HeLa	cytopathic effect	EC50	0.033–0.659 µg/mL
CC(=O)NC[C@H]1CN(c2ccc(-c3ccn[nH]3)c(F)c2)C(=O)O1	Enterococcus faecalis	UC9217	-	-	MIC	4 µg/mL
O=C(Nc1cc(C(F)(F)F)cc(C(F)(F)F)c1)NS(=O)(=O)c1ccc(OC(F)(F)F)cc1	Enterococcus faecalis	STD44	-	-	MIC	>200 µM
COC(=O)n1ccc(-c2ccc(N3C[C@H](CNC(C)=O)OC3=O)cc2F)n1	Enterococcus faecalis	UC9217	-	-	MIC	8 µg/mL
Cc1c(NCCO)c(F)cc2c(=O)c(C(=O)O)cn(-c3cc(N)c(F)cc3F)c12	Enterococcus faecium	W1418	-	-	MIC	>64 µg/mL
CC[C@H]1OC(=O)[C@H](C)C(=O)[C@H](C)[C@@H](O[C@@H]2O[C@H](C)C[C@H](N(C)C)[C@H]2O)[C@](C)(OC)C[C@@H](C)C(=O)[C@H](C)[C@H]2N(CCCCn3cnc(-c4cccnc4)c3)C(=O)O[C@]12C	Enterococcus faecalis	-	-	-	MIC90	2–4 µg/mL
CC(=O)NC[C@H]1CN(c2ccc(-c3ccn(C)n3)c(F)c2)C(=O)O1	Enterococcus faecalis	UC9217	-	-	MIC	8 µg/mL

For reference, 3 entries again:

| compound | agent | strain | cells | method | endpoint | value |
|---|---|---|---|---|---|---|
| O=C1N(CCCCCOc2ccc(-c3ccc(Cl)cc3)cc2)CCN1c1ccncc1 | Enterovirus | Clinical isolate 71 (4643) genotype C | RD | cytopathic effect | EC50 | 0.038 µM |
| Cc1cc(CCCCCOc2c(Cl)cc(C3=NCCO3)cc2Cl)on1 | Enterovirus | Woodruff (CVB3) | VERO | plaque count | EC50 | 0.044 µg/mL |
| CN(C)c1cc(NC(=O)CNC(C)(C)C)c(O)c2c1C[C@H]1C[C@H]3[C@H](N(C)C)C(=O)C(C(N)=O)=C(O)[C@@]3(O)C(=O)C1=C2O | Enterococcus faecalis | 20 strains (vancomycin-resistant) | - | - | MIC90 | 0.12 µg/mL |